How the values were obtained:
[1] = molecular target: T1, H7 hemagglutinin (A/Netherlands/219/2003) (influenza A virus …)
[2] = molecular target: T2, H3 hemagglutinin (A/Brisbane/10/2007) (influenza A virus A/Brisbane/10/2007 …); assay: cell-based or functional assay
[3] = molecular target: H3 hemagglutinin of H3N2 strain X-31 (influenza A virus X-31 (H3N2), UniProt P03437 17-566); assay: cell-based or functional assay
[4] = molecular target: T3, H3 hemagglutinin (A/Victoria/3/75) (influenza A virus A/Victoria/3/75 (H3N2), UniProt P03435 17-567); assay: cell-based or functional assay
[5] = molecular target: T2, H3 hemagglutinin (A/Brisbane/10/2007); assay: ELISA on coated HA, relative Kd (4-parameter fit)
[6] = molecular target: H5 hemagglutinin (A/Vietnam/1203/2004) (influenza A virus A/Vietnam/1203/2004 …); assay: ELISA on coated HA, relative Kd (4-parameter fit)
[7] = molecular target: T1, H7 hemagglutinin …; assay: ELISA on coated HA, relative Kd (4-parameter fit)
[8] = molecular target: H9 hemagglutinin (A/Hong Kong/1073/99) (influenza A virus A/Hong Kong/1073/99 …); assay: ELISA on coated HA, relative Kd (4-parameter fit)
[9] = molecular target: T3, H3 hemagglutinin (A/Victoria/3/75); assay: cell-based or functional assay; remark: listed apart in the source
[10] = molecular target: H3 hemagglutinin (A/Panama/2007/99) (influenza A virus A/Panama/2007/99 …); assay: cell-based or functional assay

B1: Ab 028 (antibody, V domains shown)
VH: EVQLLESGGGLVKPGQSLKLSCAASGFTFSSYGMHWVRQPPGKGLEWVAVVSYDGSNKYYADSVQGRFTISRDNSKNTLYLQMNSLRAEDTAVYYCAKDTKLRSLLYFEWLSSGLLDYWGQGAMVTVSS
VL: EIVMTQSPDSLAVSLGERATINCKSSQSVTFDYKNYLAWYQQKPGQPPKLLIYWASTRESGVPDRFSGSGSGTDFTLTISSLQAEDVAVYYCQQYYRTPPTFGGGTKLDIK
EC50 (read off the curve) [1]: ~7 µg/mL

B2: Ab A18 (antibody, V domains shown)
VH: EVQLLESGGGLVKPGQSLKLSCAASGFTFTSYGMHWVRQPPGKGLEWVAVISYDGSYKYYADSVQGRFTISRDNSKNTLYLQMNSLRAEDTAVYYCAKDSRLRSLLYFEWLSQGYFNPWGAGTTLTVSS
VL: EIVMTQSPDSLAVSLGERATINCKSSQSVTYNYKNYLAWYQQKPGQPPKLLIYWASTRESGVPDRFSGSGSGTDFTLTISSLQAEDVAVYYCQQYYRTPPTFGGGTKLDIKG
IC50 (RT-PCR, neutralisation) [2]: ~7 µg/mL
IC50 (qPCR quantification of X-31 viral RNA) [3]: < 10 µg/mL
IC50 (RT-PCR, neutralisation) [4]: 2 µg/mL
Kd [5]: 0.459 nM
Kd [6]: 0.068 nM
Kd [7]: 0.845 nM
Kd [8]: 0.067 nM

B3: Ab 044 (antibody, V domains shown)
VH: QVQLLETGGGLVKPGQSLKLSCAASGFTFTSYAMHWVRQPPGKGLEWVAVVSYDGNYKYYADSVQGRFTISRDNSKNTLYLQMNSLRAEDTAVYYCAKDSRLRSLLYFEWLSQGYFNPWGQGTTLTVSS
VL: DIQMTQSPSSLSASVGDRVTITCRSSQSITFDYKNYLAWYQQKPGKAPKLLIYWGSYLESGVPSRFSGSGSGTDFTLTISSLQPEDFATYYCQQHYRTPPSFGQGTKVEIK
EC50, Neutral Red (CPE inhibition) [9]: 4.9 µg/mL
EC50, Neutral Red (CPE inhibition) [10]: 11 µg/mL

From patent publication US20220204592A1 (VISTERRA, published 2022)
